Patent US8193224B2, “Medicinal composition for prevention or treatment of parasitic protozoan infection” (Fujifilm Corporation, priority 2004, dated 2012)

What was measured:
Format in all cases: cell-based
[1] = test system: Plasmodium falciparum K1 strain; test: Chloroquine resistant-Plasmodium falciparum growth inhibition screening test; details: chemotherapy index = EC50 rat L6 cells / EC50 chloroquine resistant P. falciparum
Description: In the present example, protozoa of Plasmodium falciparum K1 strain was used. RPMI-1640 medium sterilized with a filter to which human serum was added to be 5%, was used in the experiment. Malarial parasites were cultured under 3% O2 concentration, 4% Co2 concentration, 93% N2 concentration, and at a temperature of 37° C.
The compounds of the present invention to be used in the present test and the positive target drug (chloroquine) were dissolved in DMSO to make a test solution of a predetermined concentration. Cultured malarial parasite infected-erythrocytes were collected by centrifugation, and diluted with non-infected erythrocyte so that the early infection rate is 0.15%. Hematocrit level at that time was 2.5%. 200 μL of malaria infected solution was added to wells of a 96-well culture plate, and adjusted by adding a test solution containing drug of a predetermined concentration or a drug-free DMSO. Test solutions were taken by duplicates. After culturing for 48 hours at 37° C., 0.5 μCi radioactive tritium (3H)-labeled hypoxanthine was added to each well. After further culturing for 24 hours under the same conditions, it was collected on a glass fiber filter and washed with distilled water. Radiation intensity was measured with a beta plate liquid scintillation counter (Wallac), and malarial parasite infection rates of the test solution added group and of the control group were calculated. Growth inhibition rate was calculated with the following formula based on the malarial parasite infection rate obtained in the above, to obtain a 50% growth inhibition concentration (EC50). Growth inhibition rate (%)={1−(b−a)/(c−a)}×100 a: early infection rate b: infection rate when test solution was added c: infection rate of the control

[2] = test system: Trypanosoma brucei rhodensiense (STIB 900 strain); test: African trypanosome protozoa growth inhibition screening test; details: chemotherapy index = EC50 rat L6 cells / EC50 African trypanosome protozoa
[3] = test system: Leishmania donovani (MHOM/ET/67/L82 strain); test: Leishmania protozoa growth inhibition screening test; details: chemotherapy index = EC50 rat L6 cells / EC50 leishmania protozoa

Row | Structure (SMILES) | Selective toxicity [1] | Selective toxicity [2] | Selective toxicity [3]
1 | CCn1c(=Cc2cc[n+](CC)c3ccccc23)sc(=CC=C2C=Cc3ccccc3N2C)c1=O [A-14] | 67 | 220 | 46
2 | C=CCn1c(=Cc2oc3ccccc3[n+]2C)sc(=CC=C2Sc3ccccc3N2C)c1=O [A-13] |  | 120 | 280
3 | CCn1c(=Cc2sc3c4ccccc4ccc3[n+]2CC)sc(=CC=C2SCCN2C)c1=O [A-9] | 110 | 58 | 350
4 | CCn1c(=Cc2oc3ccccc3[n+]2CC)sc(=CC=C2N(C)c3ccccc3C2(C)C)c1=O [A-8] | 130 | 6.0 | 32
5 | CCn1c(=Cc2cccc[n+]2C)sc(=CC=C2Sc3ccccc3N2C)c1=O.Cc1ccc(S(=O)(=O)[O-])cc1 [A-4] | 660 | 190 | 
